The record followed here is paper PMC8123576 (International Journal of Molecular Sciences, 2021).

The test deals with aflatoxin accumulation by A. flavus. Briefly: Aflatoxin accumulation assessment in coconut clarified medium. The format is cell-based, Aspergillus flavus.

With “Bis(2-acetylthiophenethiosemicarbazonato) copper(II)”, the “containment effect on aflatoxin production compared with the ligand” value (10 to 100 µM) is on record as “did not differ from the parent compound”.

For the substance “Bis(2-acetylthiophenethiosemicarbazonato) zinc(II)”, the “containment effect on aflatoxin production compared with the ligand” value by setting is: (25 µM) “significant activity decrease”; (10 to 100 µM) “did not differ from the parent compound”.
